Measured values from several laboratories, pooled; numbers as filed in NIAID ChemDB.

Common to all: whole-cell or culture tests; species: HIV-1; measure: EC50

ECn is the concentration giving n% inhibition of infection, replication or growth. Blank or dashed fields: not listed here. Neighbouring rows are from separate reports. a–b is a range or a potency band.

smiles | strain | mutations | cell line | value
CC(C)(CN)NC(=O)[C@@H]1CCCN1C(=O)[C@@H](O)[C@H](Cc1ccccc1)NC(=O)[C@H](CC(N)=O)NC(=O)OCc1ccccc1 |  |  |  | >100 µg/mL
O=C1CC(C#CC2CC2)(C(F)(F)F)c2cc(Cl)ccc2N1 |  | RT-L100I |  | <0.992 µM
CC(C)[C@H](NC(=O)[C@H](Cc1cccc2ccccc12)CS(=O)(=O)C(C)(C)C)C(=O)N[C@@H](Cc1ccccc1)[C@@H](O)CN1CCC[C@H]1C(F)(F)F |  |  | PBL | 0.558 µM
CC(C)(C)C(=O)SCCOP(=O)(OCCSC(=O)C(C)(C)C)OC[C@H]1CC[C@@H](n2cnc3c(N)ncnc32)O1 | LAV |  | PBMC | 0.002 µM
CCN1C[C@H](C)N2C(=C(O)C3C(=O)N4Cc5ccc(F)cc5COCCCCCS(=O)(=O)N(C)C(=N4)C32)C1=O | LAII(IIIB) |  | MT-4 | 2.53 µM
C=CCO[C@]12CS(=O)(=O)O[C@@]13[C@@H](CN2)O[C@@H](n1cc(C)c(=O)[nH]c1=O)[C@@H]3O[Si](C)(C)C(C)(C)C | IIIB |  | MT-4 | >10 µM
Nc1ncnc2c1ncn2OCC(CO)OCP(=O)(O)O |  |  | PBMC | 0.63 µM
Nc1ccc(CO[C@H]2C(=O)Nc3ccc(Cl)cc3[C@@]2(C#CC2CC2)C(F)(F)F)cc1 |  | RT-L100I |  | <0.049 µM
COC(=O)C(=O)N1CCC[C@H]1C(=O)N[C@@H](Cc1ccccc1)C(=O)N[C@@H](CC(N)=O)C(=O)N[C@@H](Cc1ccccc1)[C@H](O)C(=O)N1CCC[C@H]1C(=O)NC(C)(C)C |  |  |  | >100 µg/mL
CC(=O)OC[C@H]1O[C@@H](n2cc(C)c(=O)n(C)c2=O)[C@H](O[Si](C)(C)C(C)(C)C)C12OS(=O)(=O)C=C2N |  |  | MT-4 | >50 µM
Nc1cccc(CO[C@H]2C(=O)Nc3ccc(Cl)cc3[C@@]2(C#CC2CC2)C(F)(F)F)c1 | RF |  | MT-2 | <0.138 µM
CCCCCO[C@]12CS(=O)(=O)O[C@@]13[C@@H](CN2)O[C@@H](n1cc(C)c(=O)[nH]c1=O)[C@@H]3O[Si](C)(C)C(C)(C)C | IIIB |  | CEM | >5 µM
NC(=O)C[C@H](NC(=O)c1ccc2ccccc2n1)C(=O)N[C@@H](Cc1ccccc1)[C@H](O)C(O)CN1CCC[C@H]1C(F)(F)F |  |  | PBL | 17 µM
C=CCOC[C@H]1O[C@@H](n2cc(C)c(=O)n(C)c2=O)[C@H](O[Si](C)(C)C(C)(C)C)C12OS(=O)(=O)C=C2N |  |  | CEM + CEM/0 | 4 µM
COc1ccccc1NC(=O)c1ccccc1Sc1ccc(C(=O)O)cc1.C[N+](C)(C)CO | LAI |  | MT-4 | >50 µM
CCCc1c(OC2CCCC2)c2cc(C)ccc2[nH]c1=O |  |  | MT-4 | 0.74 µM
Nc1nc2c(ncn2OCC2COP(=O)(O)CO2)c(=O)[nH]1 |  |  | PBMC | 0.44 µM
CC(=O)Nc1ccc(S(=O)(=O)N(CC(C)C)C[C@@H](O)[C@H](CCc2ccccc2)NC(=O)Cc2c[nH]c3ccccc23)cc1 |  |  |  | 1 µM
O=c1[nH]cnc2c1ncn2OCCOCP(=O)(O)O |  |  | PBMC | 10 µM
[N-]=[N+]=N[C@@]1(CO)CO[C@@H](n2cnc3c(N)ncnc32)C1 |  |  | MT-4 | >100 µg/mL
Cc1cn([C@@H]2O[C@H](CN3CCN(C)CC3)C3(OS(=O)(=O)C=C3N)[C@H]2O[Si](C)(C)C(C)(C)C)c(=O)n(C)c1=O |  |  | CEM + CEM/0 | >50 µM
Cc1cn([C@@H]2O[C@H](CO)C[C@@H]2F)c(=O)[nH]c1=O | IIIB |  | MT-4 | >500 µM
COP(=O)(c1cc(C)cc(CCC#N)c1)c1c(C(N)=O)[nH]c2ccc(Cl)cc12 | BH10 |  | PBMC | 0.0004 µM
COC(=O)C(=O)N1CCC[C@H]1C(=O)N[C@@H](Cc1ccccc1)C(=O)Nc1ccc(OCC(=O)N[C@@H](CC(N)=O)C(=O)N[C@@H](Cc2ccccc2)[C@H](O)C(=O)N2CCC[C@H]2C(=O)NC(C)(C)C)cc1 |  |  |  | >100 µg/mL
COc1ccc(S(=O)(=O)N(CC(C)C)C[C@@H](O)[C@H](Cc2ccccc2)NC(=O)O[C@H]2CO[C@H]3O[C@@H]4OCC[C@@H]4[C@H]32)cc1 | LAI |  |  | 0.0018 µM
O=c1ccn([C@@H]2O[C@H](CO)[C@](O)(C(F)(F)F)[C@H]2O)c(=O)[nH]1 |  |  | MT-4 | >100 µM
CCN1C[C@H](C)N2C(=C(O)C3C(=O)N4Cc5ccc(F)cc5OCCCC[C@@H](C)S(=O)(=O)N(C)C(=N4)C32)C1=O | LAII(IIIB) |  | MT-4 | 379 µM
COc1ccccc1NC(=O)c1ccccc1Sc1ccc([N+](=O)[O-])cc1 | LAI |  | MT-4 | >50 µM
Nc1ccn([C@@H]2O[C@H](CO)[C@@H](F)[C@@H]2F)c(=O)n1 | IIIB |  | MT-4 | >500 µM
CN=C1Cc2cc(S(=O)(=O)N(CC(C)C)C[C@@H](O)[C@H](Cc3ccccc3)NC(=O)OC3CO[C@H]4OC[C@H](OCc5ccccc5)[C@@H]34)ccc2N1 | IIIB |  |  | 0.0008 µM
CC(C)[C@H](NC(=O)[C@H](C/C=C/c1ccccc1)C[C@H](O)[C@H](Cc1ccccc1)NC(=O)OC(C)(C)C)c1ncn[nH]1 | IIIB |  | MOLT-4 | 0.31 µM
Cc1ccccc1CNC(=O)[C@H]1N(C(=O)[C@@H](O)[C@H](CCc2ccccc2)NC(=O)O[C@H]2CO[C@H]3OCC[C@H]32)CSC1(C)C | ERS104pre |  |  | 0.031 µM
CC1CCC(C(C)C)/C(=N/NC(=S)Nc2ccccc2)C1 | IIIB |  | MT-4 | >108.1 µg/mL
CC(=O)Nc1ccc(S(=O)(=O)N(CC(C)C)C[C@@H](O)[C@H](CCc2ccccc2)NC(=O)CN2C(=O)c3ccccc3C2=O)cc1 |  |  |  | 2 µM
Cc1cn([C@@H]2O[C@H](CO)[C@](O)(C(F)(F)F)[C@H]2O)c(=O)[nH]c1=O |  |  | MT-4 | >100 µM
Nc1ncnc2c1ncn2[C@H]1C[C@](N)(CO)CO1 |  |  | MT-4 | >100 µg/mL
Cc1cn([C@@H]2O[C@H](COC(=O)c3ccccc3)C3(OS(=O)(=O)C=C3N)[C@H]2O[Si](C)(C)C(C)(C)C)c(=O)n(C)c1=O |  |  | MT-4 | >15 µM
CC1CCC(C(C)C)/C(=N/NC(=O)Nc2cccc(Cl)c2)C1 | IIIB |  | MT-4 | >125 µg/mL
CC(C)[C@H](NC(=O)[C@H](Cc1cccc2ccccc12)CS(=O)(=O)C(C)(C)C)C(=O)N[C@@H](Cc1ccccc1)[C@@H](O)CN1[C@H](C)CC[C@H]1C(F)(F)F |  |  | PBL | 0.547 µM
Cc1cn([C@H]2C[C@@H](CO)[C@H](O)[C@@H]2O)c(=O)[nH]c1=O | LAV |  | PBMC | >100 µM
CCCc1c(OCc2ccccc2)c2cc(Cl)ccc2[nH]c1=O | Nevirapine-resistant (RT Y181C) | RT-Y181C | MT-4 | >5 µM
CC(C)[C@H](NC(=O)[C@H](Cc1cccc2ccccc12)CS(=O)(=O)C(C)(C)C)C(=O)N[C@@H](Cc1ccccc1)[C@@H](O)CN1CCc2ccccc2[C@H]1C(F)(F)F |  |  | PBL | >1 µM
CC(=O)SCCOP(=O)(OCCSC(C)=O)OC[C@@H]1C=C[C@H](n2cc(C)c(=O)[nH]c2=O)O1 |  |  | MT-4 | 0.016 µM
CCCc1c(OC2CCCC2)c2ccccc2[nH]c1=O | Nevirapine-resistant (RT Y181C) | RT-Y181C | MT-4 | 1.85 µM
CC(C)N1C[C@H](C)N2C(=C(O)C3C(=O)N4Cc5ccc(F)cc5OCCCCCNC(=O)C(=N4)C32)C1=O | LAII(IIIB) |  | MT-4 | 2.81 µM
Cc1cn([C@@H]2O[C@@H]3CN[C@@]4(OCCO)CS(=O)(=O)O[C@@]34[C@H]2O[Si](C)(C)C(C)(C)C)c(=O)[nH]c1=O | IIIB |  | CEM | 11 µM
O=c1[nH]c(SCc2cn[nH]n2)nc(-c2cccc([N+](=O)[O-])c2)c1Cl | ADA5 |  |  | 0.82 µg/mL
CCCc1c(OCC2CCC2)c2cc(F)ccc2[nH]c1=O | Nevirapine-resistant (RT Y181C) | RT-Y181C | MT-4 | 0.117 µM
CC(C)(C)NC(=O)[C@@H]1CCCN1C(=O)[C@@H](O)[C@H](Cc1ccccc1)NC(=O)[C@H](CC(N)=O)NC(=O)COc1ccccc1 |  |  |  | 4.5–6 µg/mL
Nc1ccn([C@@H]2O[C@H](CO)C[C@@H]2F)c(=O)n1 | IIIB |  | MT-4 | 9.8 µM
COC[C@@H](c1ccc(C(F)(F)F)cc1)N1CCN(C2(C)CCN(C(=O)c3c(C)ncnc3C)CC2)C[C@@H]1C | S | V535M | PBMC | 0.00069 µM
CCCc1c(SCC2CCC2)c2cc(Cl)ccc2[nH]c1=O | Nevirapine-resistant (RT Y181C) | RT-Y181C | MT-4 | 0.107 µM
O=c1ccn(N2CC[C@@H](CO)C2)c(=O)[nH]1 | RF |  | MT-4 | >100 µg/mL
CCCc1c(OC2CCC2)c2cc(Cl)ccc2[nH]c1=O | Nevirapine-resistant (RT Y181C) | RT-Y181C | MT-4 | >5 µM
CCN1C[C@@H](C)N2C(=C(O)C3C(=O)N(Cc4ccc(F)c(Cl)c4)N=C(N4CCN(C)S4(=O)=O)C32)C1=O | LAII(IIIB) |  | MT-4 | 2.04 µM
CC(C)[C@H](NC(=O)[C@H](Cc1ccccc1)C[C@H](O)[C@H](Cc1ccccc1)NC(=O)OC(C)(C)C)C(=O)N/C(N)=N/C(=O)OCc1ccccc1 | IIIB |  | MOLT-4 | 0.03 µM
CCN1C[C@H](C)N2C(=C(O)C3C(=O)N4Cc5ccc(F)cc5OCCCCCS(=O)(=O)N(C5CC5)C(=N4)C32)C1=O | LAII(IIIB) |  | MT-4 | 0.6 µM
CCC(C)c1c(OC2CCCC2)c2cc(Cl)ccc2[nH]c1=O |  |  | MT-4 | 0.01 µM
CC(C)[C@H](NC(=O)[C@H](Cc1ccccc1)C[C@H](O)[C@H](Cc1ccccc1)NC(=O)[C@H](C)NC(=O)OCc1ccccc1)C(N)=O | IIIB |  | MOLT-4 | 0.85 µM
Cc1cn([C@@H]2O[C@H](COC(=S)N(C)C)C3(OS(=O)(=O)C=C3N)[C@H]2O[Si](C)(C)C(C)(C)C)c(=O)n(C)c1=O |  |  | CEM + CEM/0 | >10 µM
CC(C)[C@H](NC(=O)[C@H](Cc1cccc2ccccc12)CS(=O)(=O)C(C)(C)C)C(=O)N[C@@H](Cc1ccccc1)[C@@H](O)CN1CC[C@H]2CCCC[C@H]2[C@H]1C(F)(F)F |  |  | PBL | >2.545 µM
CC(=O)N[C@H]1C(=O)Nc2ccc(Cl)cc2[C@@]1(C#CC1CC1)C(F)(F)F | RF |  | MT-2 | <0.917 µM
COC(=O)C(=O)N1CCC[C@H]1C(=O)N[C@@H](Cc1ccccc1)C(=O)Nc1ccccc1OCC(=O)N[C@@H](CC(N)=O)C(=O)N[C@@H](Cc1ccccc1)[C@H](O)C(=O)N1CCC[C@H]1C(=O)NC(C)(C)C |  |  |  | 60 µg/mL
CCCOc1nc(N)nc2c1ncn2[C@@H]1C=C[C@H](CO)C1 |  |  | MT-2 | 2.5 µM
CS(=O)(=O)Oc1ccccc1NC(=O)c1ccccc1Sc1ccc([N+](=O)[O-])cc1 | LAI |  | MT-4 | >50 µM
CCO[C@]12CS(=O)(=O)O[C@@]13[C@@H](CN2)O[C@@H](n1ccc(=O)[nH]c1=O)[C@@H]3O[Si](C)(C)C(C)(C)C | IIIB |  | CEM | >50 µM
Nc1ncnc2c1ncn2[C@@H]1C[C@](N)(CO)CO1 |  |  | MT-4 | >100 µg/mL
CCN1C[C@H](C)N2C(=C(O)C3C(=O)N4Cc5cc(F)c(F)cc5OCCCCS(=O)(=O)N(C)C(=N4)C32)C1=O | LAII(IIIB) |  | MT-4 | 1.1 µM
O=c1[nH]c(SCc2cn[nH]n2)nc(-c2ccc(F)cc2)c1Cl | ADA5 |  |  | 1.05 µg/mL
CC1CCC(C(C)C)/C(=N/NC(=O)Nc2ccc(Cl)cc2)C1 | IIIB |  | MT-4 | >28.4 µg/mL
CCCc1c(OC2CCCC2)c2cc(F)ccc2[nH]c1=O | Nevirapine-resistant (RT Y181C) | RT-Y181C | MT-4 | 0.72 µM

A second listing of 9 rows from above:

{"smiles": "CCN1C[C@H](C)N2C(=C(O)C3C(=O)N4Cc5cc(F)c(F)cc5OCCCCS(=O)(=O)N(C)C(=N4)C32)C1=O", "strain": "LAII(IIIB)", "cell line": "MT-4", "value": "1.1 µM"}
{"smiles": "COc1ccc(S(=O)(=O)N(CC(C)C)C[C@@H](O)[C@H](Cc2ccccc2)NC(=O)O[C@H]2CO[C@H]3O[C@@H]4OCC[C@@H]4[C@H]32)cc1", "strain": "LAI", "value": "0.0018 µM"}
{"smiles": "Cc1cn([C@H]2C[C@@H](CO)[C@H](O)[C@@H]2O)c(=O)[nH]c1=O", "strain": "LAV", "cell line": "PBMC", "value": ">100 µM"}
{"smiles": "CC1CCC(C(C)C)/C(=N/NC(=O)Nc2cccc(Cl)c2)C1", "strain": "IIIB", "cell line": "MT-4", "value": ">125 µg/mL"}
{"smiles": "Nc1ccc(CO[C@H]2C(=O)Nc3ccc(Cl)cc3[C@@]2(C#CC2CC2)C(F)(F)F)cc1", "mutations": "RT-L100I", "value": "<0.049 µM"}
{"smiles": "Cc1cn([C@@H]2O[C@H](COC(=S)N(C)C)C3(OS(=O)(=O)C=C3N)[C@H]2O[Si](C)(C)C(C)(C)C)c(=O)n(C)c1=O", "cell line": "CEM + CEM/0", "value": ">10 µM"}
{"smiles": "CC1CCC(C(C)C)/C(=N/NC(=O)Nc2ccc(Cl)cc2)C1", "strain": "IIIB", "cell line": "MT-4", "value": ">28.4 µg/mL"}
{"smiles": "O=c1[nH]c(SCc2cn[nH]n2)nc(-c2ccc(F)cc2)c1Cl", "strain": "ADA5", "value": "1.05 µg/mL"}
{"smiles": "CC(=O)Nc1ccc(S(=O)(=O)N(CC(C)C)C[C@@H](O)[C@H](CCc2ccccc2)NC(=O)Cc2c[nH]c3ccccc23)cc1", "value": "1 µM"}